Results as given in patent publication US8884000B2 (priority 2010, dated 2014).

By UniProt entry, the sequences of proteins in these tests, tags left out. Where a name states a change or a piece, a line headed by the entry shows the natural chain unless it says otherwise.
UniProt Q2QEH4: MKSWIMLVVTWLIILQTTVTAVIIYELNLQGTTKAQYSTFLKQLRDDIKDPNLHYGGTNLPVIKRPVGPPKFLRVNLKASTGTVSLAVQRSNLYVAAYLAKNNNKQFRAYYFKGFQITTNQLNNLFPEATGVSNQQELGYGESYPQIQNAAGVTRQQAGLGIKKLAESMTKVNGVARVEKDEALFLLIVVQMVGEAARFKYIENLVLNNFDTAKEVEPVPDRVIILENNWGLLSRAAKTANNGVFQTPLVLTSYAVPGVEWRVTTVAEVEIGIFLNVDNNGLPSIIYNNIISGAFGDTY

Biological target: saporin-L1 (Saponaria officinalis, UniProt Q2QEH4)

5′-CGCGAGAGCG-3′
Km: 95 µM | fold faster depurination (kcat) than poly(A) RNA: 10 fold | fold increased catalytic efficiency (kcat/Km) versus poly(A) RNA: 45 fold | fold lower Km with saporin-L1 than with saporin-S6: 4 fold | fold more efficient (kcat/Km) depurination by saporin-L1 than by saporin-S6: 4.800 fold | fold tighter (Km) than poly(A) RNA: 4.5 fold | times faster catalysis (kcat) by saporin-L1 than by saporin-S6: approximately 1,500 times
